According to publication PMC7765388, “Synthesis and In Vitro Antiprotozoan Evaluation of 4-/8-Aminoquinoline-based Lactams and Tetrazoles” (Molecules, 2020):

System: P. falciparum K1 strain
Test: In vitro antiplasmodium activity, 3H-hypoxanthine incorporation assay
Format: cell-based, Plasmodium falciparum
Details: for Selectivity Indices (SI) [(IC50 L6 Cell Line)/(IC50 K1 strain)]: L6 vs K1
Method: Antiplasmodial activity on the K1 strain, antitrypanosomal activity on T. b. brucei rhodesiense STIB900 and cytotoxicity on the L6 mammalian cell-line were all carried out at the Swiss Tropical and Public Health Institute (STPH), Switzerland as follows:
In vitro activity against erythrocytic stages of P. falciparum was determined using a ^3H-hypoxanthine incorporation assay, using the chloroquine and pyrimethamine-resistant K1 strain that originates from Thailand and the standard drug chloroquine (Sigma C6628). Compounds were dissolved in DMSO at 10 mg/mL and added to parasite cultures incubated in RPMI 1640 medium without hypoxanthine, supplemented with HEPES (5.94 g/L), NaHCO3 (2.1 g/L), neomycin (100 U/mL), Albumax^R (5 g/L) and washed human red cells A^+ at 2.5% hematocrit (0.3% parasitemia). Serial drug dilutions of eleven three-fold dilution steps covering a range from 100 to 0.002 μg/mL were prepared. The 96-well plates were incubated in a humidified atmosphere at 37 °C; 4% CO2, 3% O2, 93% N2. After 48 h, 50 μL of ^3H-hypoxanthine (= 0.5 μCi) was added to each well of the plate. The test compounds were tested in triplicate ad parasite growth compared to control or blank well. The plates were incubated for a further 24 h under the same conditions. The plates were then harvested with a Betaplate™ cell harvester (Wallac, Zurich, Switzerland), and the red blood cells transferred onto a glass fiber filter then washed with distilled water. The dried filters were inserted into a plastic foil with 10 mL of scintillation fluid and counted in a Betaplate™ liquid scintillation counter (Wallac, Zurich, Switzerland). IC50 values were calculated from sigmoidal inhibition curves by linear regression using Microsoft Excel.

Compound	Selectivity Indices (SI) [(IC50 L6 Cell Line)/(IC50 K1 strain)]	further results
N-{5-[(1-tert-butyl-1H-tetrazol-5-yl)(phenyl)methylamino]pentan-2-yl}-6-methoxyquinolin-8-amine [Compound 6a]	4	
1-[2-(7-Chloroquinolin-4-ylamino)ethyl]-3-methoxy-4-(4-methoxyphenyl)azetidin-2-one [Compound 4b]	33	
N-{5-[(1-tert-butyl-1H-tetrazol-5-yl)(4-chlorophenyl)methylamino]pentan-2-yl}-6-methoxyquinolin-8-amine [Compound 6e]	17	
COC1C(=O)N(CCNc2ccnc3cc(Cl)ccc23)C1c1ccc(Cl)c(Cl)c1 (centres unmarked) [Compound 4d, 1-[2-(7-Chloroquinolin-4-ylamino)ethyl]-4-(3,4-dichlorophenyl)-3-methoxyazetidin-2-one]		fold more active than primaquine (antiplasmodium) (K1 strain, vs primaquine): 3 fold
1-[2-(7-Chloroquinolin-4-ylamino)ethyl]-3-methoxy-4-p-tolylazetidin-2-one [Compound 4c]	160	
N-{5-[(1-tert-butyl-1H-tetrazol-5-yl)(p-tolyl)methylamino]pentan-2-yl}-6-methoxyquinolin-8-amine [Compound 6c]	8	
N-{5-[(1-tert-butyl-1H-tetrazol-5-yl)(3,4-dichlorophenyl)methylamino]pentan-2-yl}-6-methoxyquinolin-8-amine [Compound 6d]	67	fold less active than chloroquine (antiplasmodium) (K1 strain, vs chloroquine): 6 fold; fold less active than primaquine (antiplasmodium) (K1 strain, vs primaquine): 2 fold
1-[2-(7-Chloroquinolin-4-ylamino)ethyl]-4-(4-chlorophenyl)-3-methoxyazetidin-2-one [Compound 4e]	38	fold more active than primaquine (antiplasmodium) (K1 strain, vs primaquine): 2 fold
